Test [1] deals with Eimeria tenella casein kinase I alpha (native EtCKIα), SEQ ID NO:2 (Eimeria tenella, UniProt Q6QNL9). Briefly: Casein kinase assay, inhibition of partially purified native EtCKIα. Particulars: at 250 nM; cation exchange purified native enzyme. As for the experimental part:
(§1) Protein kinase assays—Casein kinase activity was assayed essentially as described (Donald, R. G. K. et al., 2002, supra) using 96-well phosphocellulose plates (MAPH-NOB, Millipore; Billerica, Mass.) to capture ^33P-phosphorylated peptide or casein substrates. Kinase reactions were carried out in 40 μl volumes containing 25 mM Hepes, pH 7.4, 10 mM MgCl2, 20 mM β-glycerophosphate, 1 mM DTT, 250 μM substrate, 1 mg/mL BSA, 2 μM ATP, and 0.01 μM [γ-^33P]ATP (Perkin-Elmer, 3000 Ci/mmol). The reactions were initiated by the addition of enzyme and incubated at room temperature for 60 min. Casein (5% solution), partially dephosphorylated α-casein and β-casein were obtained from Sigma.
A variety of commercially available peptide substrates were evaluated. From Calbiochem (San Diego, Calif.): CKI substrate (RRKDLHDDEEDEAMSITA; SEQ ID NO:13); CKII substrate (RRADDSDDDDD; SEQ ID NO:14); Syntide-2 substrate (PLARTLSVAGLPGKK; SEQ ID NO:15); CaM kinase II substrate (281-291) (MHKNETVECLK; SEQ ID NO:16). From Promega: CKI substrate (DDDEESITRR; SEQ ID NO:17) and kemptide (LRRASLG; SEQ ID NO:18). From New England Biolabs (Beverly, Mass.): CKI phosphopeptide substrate (KRRRALS(p)VASLPGL; SEQ ID NO:19), and CKII substrate (RRREEETEEE; SEQ ID NO:20). PKG assays were performed with kemptide as substrate and 10 μM cGMP. CDPK was assayed with Syntide-2 substrate and in the presence of 100 μM CaCl2. […]

Sequences of proteins named here, by UniProt entry; tags and fusion partners are left off. A change or cut given only in a name is not applied to a line headed by its entry.
UniProt Q6QNL9, whole entry: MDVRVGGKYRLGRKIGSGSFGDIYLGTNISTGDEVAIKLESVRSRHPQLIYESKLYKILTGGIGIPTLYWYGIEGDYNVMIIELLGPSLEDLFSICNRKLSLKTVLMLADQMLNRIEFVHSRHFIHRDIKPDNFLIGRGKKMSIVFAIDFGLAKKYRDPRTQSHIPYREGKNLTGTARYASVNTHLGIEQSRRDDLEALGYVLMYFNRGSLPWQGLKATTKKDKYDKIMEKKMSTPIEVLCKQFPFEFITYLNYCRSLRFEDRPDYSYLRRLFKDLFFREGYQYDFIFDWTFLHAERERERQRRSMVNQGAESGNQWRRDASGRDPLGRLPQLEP

Test [2] deals with Eimeria tenella CDPK2 (FLAGEtCDPK2, recombinant). The test can be described thus: Kinase assay, inhibition of FLAGEtCDPK2. The following applies: dose response titration, Table 3. Here is the method:
as §1
A variety of commercially available peptide substrates were evaluated. From Calbiochem (San Diego, Calif.): CKI substrate (RRKDLHDDEEDEAMSITA; SEQ ID NO:13); CKII substrate (RRADDSDDDDD; SEQ ID NO:14); Syntide-2 substrate (PLARTLSVAGLPGKK; SEQ ID NO:15); CaM kinase II substrate (281-291) (MHKNETVECLK; SEQ ID NO:16). From Promega: CKI substrate (DDDEESITRR; SEQ ID NO:17) and kemptide (LRRASLG; SEQ ID NO:18). From New England Biolabs (Beverly, Mass.): CKI phosphopeptide substrate (KRRRALS(p)VASLPGL; SEQ ID NO:19), and CKII substrate (RRREEETEEE; SEQ ID NO:20). PKG assays were performed with kemptide as substrate and 10 μM cGMP. CDPK was assayed with Syntide-2 substrate and in the presence of 100 μM CaCl2.

SMILES strings stand for the structures. A value given as a limit tells only on which side of the number the result lay.

Consider `CN(C)Cc1ccn2c(-c3ccnc(N)n3)c(-c3ccc(F)cc3)nc2c1`, for which the inhibition in test [1] amounted to 100%. Also, in test [2], the IC50 is > 10 µM.

As usually defined, the inhibition is the relative decrease from the control value, in per cent. High values mean a strong effect, low ones a weak effect. The term IC50 denotes the concentration at which inhibition is half-maximal.

The values are drawn from US7671181B2, “Polynucleotides encoding coccidian parasite casein kinase I, a chemotherapeutic target for antiprotozoal agents” (Merck Sharp & Dohme Corp., priority 2004, dated 2010).
